Literature values as cited in paper PMC11489056, “Molecular mechanism of a triazole-containing inhibitor of Mycobacterium tuberculosis DNA gyrase” (iScience, 2024).
Values after ≈ are worked out from the molar mass of the structure shown. This is a selection: effects in other tests are not listed, and their absence says nothing.

Assays:
Mtb = details: Figure 1E, GlaxoSmithKline MGIs; cited from earlier work
Mtb gyrase = details: Figure 1E, GlaxoSmithKline MGIs; cited from earlier work

For `O=c1ccc2ncccc2n1CCN1CCC(Nc2ccc(Cl)c(Cl)c2)CC1`, the MIC (Mtb) is listed as 0.04 µg/mL (≈ 0.0958 µM) and the IC50 (Mtb gyrase) is listed as 11 µM.
